# How the values were obtained:
# Details in all cases: 2 mg/L
# [1] = test system: phenamacril-resistant scab pathogen, type-I myosin F419A mutant strain
# [2] = test system: phenamacril-resistant scab pathogen, type-I myosin I581A mutant strain
# [3] = test system: phenamacril-resistant scab pathogen, type-I myosin S217A mutant strain
substance,measurement,setting,value
phenamacril,Mycelial growth inhibition rate,[1],19%
same,Mycelial growth inhibition rate,[2],33%
same,Mycelial growth inhibition rate,[3],1.2%

# From patent publication US20240298639A1 (priority 2021, published 2024)
